According to publication PMC7320009 (Scientific Reports, 2020):

Key:
CC(=O)C(C)=O = assay: purified protein; conditions: pH 6.5; 37.0 °C
[1] = test system: NC(=O)C1=CN([C@@H]2O[C@H](COP(=O)(O)OP(=O)(O)OC[C@H]3O[C@@H](n4cnc5c(N)ncnc54)[C@H](OP(=O)(O)O)[C@@H]3O)[C@@H](O)[C@H]2O)C=CC1; assay: purified protein; conditions: pH 6.5; 37.0 °C; varied: cofactor

BPSS2242 (Burkholderia pseudomallei K96243)
Km (CC(=O)C(C)=O): 53 ± 5 mM
kcat/Km (CC(=O)C(C)=O): 4.8 M⁻¹ s⁻¹
Km [1]: 0.298 ± 0.031 mM
kcat/Km [1]: 910 M⁻¹ s⁻¹
